Primary screen of a compound library

The values are deposited in ChEMBL (CHEMBL3988442, “University of Dundee, Small-Polar-MMV Screening Library” (2021)).

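Growth of Mycobacterium tuberculosis over 3 days (7H9 medium with glucose and tyloxapol); the read-out is not stated. Concentration: 500 µM. Higher reads as more growth inhibition (inferred: compounds with an IC50 in retests scored well above the rest). Size under these conditions: about 18,000 compounds, about 1,400 of them at 50% or above in at least one test.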

Values are the deposited “Percent Effect”, in %.
The controls that fix the scale are not given in the record; negative values are as filed.
This is part of a subset picked to be rich in strong results.

compound,effect
COc1ccc(C(O)CNC2CCSCC2)cc1 (stereo not drawn),15.69
Cc1nc(C(=O)NCCN2CCCC2)c(C)s1,64.05
Cn1nccc1CCC(=O)N[C@@H]1COCC[C@H]1O,6.421
CC(C)n1cncc1CO,9.153
COCC(C)Nc1ccc2nnc(C3CC3)n2n1 (stereo not drawn),-1.82
CCN1CC(c2nc3ccccc3[nH]2)CC1=O (stereo not drawn),56.88
COC(=O)c1ccc(CSc2nnc(N)[nH]2)cc1,42.96
NC[C@@H]1CCO[C@H]1c1ccc(F)cc1,18.15
N#Cc1nc(-c2ccccc2)oc1NCCCO,53.16
CN(C)Cc1ccccc1CNC(=O)C1CC1,-1.278
COC(=O)CN1CCCC(c2ncc[nH]2)C1 (stereo not drawn),4.671
Cc1ccc(CNC(=O)c2ccncc2)cc1F,-9.784
CCn1nnc(NCc2ccccc2)n1,74.66
COCCOCCCNC(=O)c1cn2cc(C)nc2s1,54.44
CC(Cc1ccco1)NS(=O)(=O)N1CCOCC1 (stereo not drawn),13.13
O=C(CN1CCCCCCC1)NCc1ncc[nH]1,14.42
CS(=O)(=O)Nc1ccc(Cl)c(C(=O)N2CCOCC2)c1,8.864
CN1CC=C(CCN)CC1,-1.44
N#Cc1ccc(CN)cc1Cl,19.79
COCC1CCCN(CCN)C1 (stereo not drawn),-1.196
Cc1cccc(NC(=O)CN2CCN(C)CC2)c1C,12.29
CC(C)CNC1CCS(=O)(=O)C1 (stereo not drawn),1.281
COc1ccccc1NC(=O)c1csnn1,11.12
O=S(=O)(NCCO)N1CCNCC1,-2.608
c1ccc(OCCCNCc2ccsc2)nc1,34.12
Cn1cc(Br)cc1C(=O)NCC1CC(=O)N(C2CC2)C1 (stereo not drawn),31.37
Cc1nc(CNC(=O)NCc2cc[nH]n2)cs1,6.946
NC1CCCN(S(=O)(=O)C=Cc2cccc(Cl)c2)C1 (stereo not drawn),79.13
c1cncc(N2CCCCC2)c1,-0.7206
CCOc1cccc2c1OCC(C(=O)N(C)C)C2 (stereo not drawn),21.18
CN(CCc1cccs1)CC(=O)NC1CCS(=O)(=O)C1 (stereo not drawn),15.75
O=C(c1ccc(-n2ccnc2)cc1)N1CCOCC1,34.22
NCC1CC12CCS(=O)(=O)CC2 (stereo not drawn),3.259
O=C(NC1CCN(C2CCSCC2)CC1)c1ccon1,-24.51
CCc1nnc(N)o1,-6.997
CCn1cc(C(=O)NC(C)c2nc(C3CC3)no2)cn1 (stereo not drawn),29.85
CC(C)C(C)N(C)c1ccc2nnnn2n1 (stereo not drawn),-1.041
CCOC(=O)c1ccc(CNc2nncs2)o1,18.02
CC(C)c1noc(CN2CCC(CC(N)=O)CC2)n1,14.37
CC(C)COc1cncc(NC2CCS(=O)(=O)C2)n1 (stereo not drawn),41.22
CCN1CCc2nc(NC(=O)c3ccncc3)sc2C1,-15.31
CCC(N)C(=O)N1CCN(c2cc(C)ccc2C)CC1 (stereo not drawn),20.85
O=C1CN(C(=O)COCC2CC2)c2ccccc2N1,28.19
c1cnc(NCc2ccc(N3CCOCC3)nc2)nc1,-14.39
COc1cccc(N2CCC(N)C2)c1 (stereo not drawn),75.25
O=c1c2cccnc2ncn1CCOCC(F)F,-3.229
COc1cccc(CNc2nc(C)no2)c1,58.31
Cc1cc(N)nn1-c1cccc(F)c1,22.93
CC1CCN(CC(=O)NCC2CCCO2)CC1 (stereo not drawn),42.85
Cc1ccc(NS(=O)(=O)c2c(C)nn(C)c2Cl)nc1,13.99
O=C(NCc1cccnc1)NCc1cc[nH]n1,-13.36
O=C(CCn1cccc1)N1CCn2nc(CO)cc2C1,0.06253
CC(C)N(CCS(C)(=O)=O)C(=O)NCc1cccs1,23.97
CCOCCC(=O)N[C@@H]1COCC[C@@H]1OCC(N)=O,-3.637
COc1ccc([S+]([O-])Cc2noc(C)n2)cc1 (stereo not drawn),49.83
Cc1cc(C)n(CC(=O)N2CCOCC2C)n1 (stereo not drawn),-0.3622
CNCc1cccc(-n2cccn2)c1,-9.474
N#Cc1cccc(CNc2ccncc2F)c1,-8.361
c1cc2nnnn2nc1NC1CCN(C2CC2)CC1,-3.509
Cc1ccc(C#N)cc1S(=O)(=O)N1CCC[C@@H](N)C1,-3.461
O=C(c1ccc(OCC2CC2)cc1)N1CC(O)C1,33.96
CN(CCN1CCCC1)S(=O)(=O)c1ccccc1,59.31
COc1ccnc(CN(C)CC2CCOCC2)c1OC,-3.815
CCOCCC(=O)N1C[C@H](C(C)C)[C@@H](N)C1,7.648
Cc1cc(-c2noc(C(C)N)n2)ccc1F (stereo not drawn),57.82
CCC(C)CN(C)CCN (stereo not drawn),10.57
Cc1ccc(C(=O)N(C)C)cn1,-11.72
O=C(CCC(F)(F)F)N[C@@H]1c2ccccc2C[C@@H]1O,35.11
CCOc1ccc(CSc2nnc[nH]2)cc1,64.43
CN1CCN(C2CCN(C(=O)c3ccsc3)C2)CC1 (stereo not drawn),16.9
CNC(=O)CCN1CCC(=Cc2ccccc2)CC1,64.18
CCC1CCCCN1C(=O)CN(CC(N)=O)C(C)C (stereo not drawn),4.032
CCS(=O)(=O)c1ccc(CN)cc1F,8.32
CC1CN(CCCOc2ccc(C#N)cc2)CCN1 (stereo not drawn),67.2

Once more, the final 6:

| compound | effect |
|---|---|
| `CCOc1ccc(CSc2nnc[nH]2)cc1` | 64.43 |
| `CN1CCN(C2CCN(C(=O)c3ccsc3)C2)CC1` (stereo not drawn) | 16.9 |
| `CNC(=O)CCN1CCC(=Cc2ccccc2)CC1` | 64.18 |
| `CCC1CCCCN1C(=O)CN(CC(N)=O)C(C)C` (stereo not drawn) | 4.032 |
| `CCS(=O)(=O)c1ccc(CN)cc1F` | 8.32 |
| `CC1CN(CCCOc2ccc(C#N)cc2)CCN1` (stereo not drawn) | 67.2 |